Measurements as given in article PMC9096233, “Identification of an Au(I) N-Heterocyclic Carbene Compound as a Bactericidal Agent Against Pseudomonas aeruginosa” (Frontiers in Chemistry, 2022).

Columns and labels:
Type in all cases: cell-based, Pseudomonas aeruginosa
P. aeruginosa [1] = experiment: Transcriptomic assay (RNA-seq); conditions: 15 μM, 4 h; for down-regulated genes / genes with significantly altered transcriptional levels / up-regulated genes: vs control group
P. aeruginosa [2] = experiment: Gold uptake by bacteria, ICP-MS; conditions: 15 μM compound, up to 8 h
P. aeruginosa [3] = experiment: FE-SEM of bacterial morphology; conditions: 50 µM; 1 h
P. aeruginosa [4] = experiment: Atomic force microscopy of bacterial surface; conditions: 50 µM; 1 h

Compound	KEGG pathways affected by this compound alone (P. aeruginosa [1]) [pathways]	down-regulated genes (P. aeruginosa [1]) [genes]	genes with significantly altered transcriptional levels (P. aeruginosa [1])	up-regulated genes (P. aeruginosa [1]) [genes]	final cellular concentration of Au (P. aeruginosa [2])	bacterial morphology (FE-SEM) (P. aeruginosa [3])	root-mean-square roughness (Rq) of the bacterial surface (P. aeruginosa [4]) [nm]
CC(=O)OC[C@H]1O[C@@H]([S-])[C@H](OC(C)=O)[C@@H](OC(C)=O)[C@@H]1OC(C)=O.CCP(CC)CC.[Au+] [Au9, auranofin]	44	734	1,512 genes	778	approximately 40 ng/mg bacterial wet weight	no significant changes	3.8 ± 0.7
NHC^Me-Au-Cl [Au1]	6	299	680 genes	381	approximately 40 ng/mg bacterial wet weight	wrinkling and collapsed structures	10.5 ± 1.5
